Compound potency records, mixed from different reports. Data source: NIAID ChemDB in PubChem.

Common to all: growth or infection tests; species: HIV-1; cell line: CEM; measure: EC50

ECn: concentration that inhibits the pathogen or its effect by n%.

compound,strain,changes,method,setting,value
Cc1cn([C@H]2C[C@H](N=[N+]=[N-])[C@@H](COP(=O)(O)OC[C@H]3OC(O)[C@@H](O)[C@@H](O)[C@@H]3O)O2)c(=O)[nH]c1=O,LAV-Bru,,RT activity,7 d,<0.2 µM
CC[C@H](C)[C@H](NC(=O)c1ccccc1SSc1ccccc1C(=O)N[C@H](C(=O)O)[C@@H](C)CC)C(=O)O,,,cytopathic effect / XTT,,9 µM
Nc1ncnc2c1ncn2CCOCP(=O)(O)O,IIIB,,syncytia,,3.3 µM
Cc1ccnc2c1NC(=O)c1cccnc1N2C1CC1,,RT-K103N,cytopathic effect,,3.04 µM
C[C@H](Cn1cnc2c(N)ncnc21)OCP(=O)(O)O,IIIB,,syncytia,,1 µg/mL
CC[C@H](C)[C@H](NC(=O)[C@@H]1CCCN1CC(O)[C@H](Cc1ccccc1)NC(=O)[C@H](CC(N)=O)NC(=O)OCc1ccccc1)C(=O)N[C@@H](Cc1ccccc1)C(=O)OC,IIIB,,cytopathic effect / MTT,,0.75 µM
NCC(=O)Nc1ccc(Cl)cc1C(=O)c1ccc[nH]1,IIIB,,cytopathic effect / MTT,,0.13 µg/mL
CCN1C(=O)N(Cc2ccccc2)S(=O)(=O)c2cscc21,,RT-V106A,syncytia,,>310.2 µM
Nc1nc2c(ncn2C[C@H](CCO)OCP(=O)(O)O)c(=O)[nH]1,BRU,,XTT,,>100 µM
CN(C)C1C(=O)C(C(=O)NCNCCCO)=C(O)C2(O)C(=O)C3=C(O)c4c(O)cccc4C(C)(O)C3CC12,RF,,cytopathic effect / XTT,,120 µM
Nc1ncnc2c1ncn2CCOCP(=O)(O)O,Clinical isolate C20,RT-M41L D67N V118I M184V L210W T215Y,syncytia,,25 µg/mL
O=C1N(Cc2ccccc2)c2cscc2S(=O)(=O)N1Cc1ccccc1,,RT-Y181C,syncytia,,>10.4 µM
Cc1cn([C@H]2C[C@H](F)[C@@H](CO)O2)c(=O)[nH]c1=O,IIIB,,syncytia,,0.0006 µg/mL
CN(C)[C@H]1C(=O)C(C(=O)NCN2CCN(C(=N)N=C(N)N)CC2)=C(O)[C@]2(O)C(=O)C3=C(O)c4c(O)cccc4[C@](C)(O)[C@@H]3C[C@H]12,RF,,cytopathic effect / XTT,,0.3 µM
Cc1occc1C(=S)Nc1ccc(Cl)c(/C=N/OC(C)(C)C)c1,IIIB,RT-K103N,cytopathic effect,,0.2 µg/mL
C=CCNc1ncnc2c1ncn2C[C@@H](C)OCP(=O)(O)O,IIIB,,cytopathic effect / MTT,,12 ± 2.8 µg/mL
CC(C)Nc1cccnc1N1CCN(C(=O)c2cc3cc(NS(C)(=O)=O)ccc3[nH]2)CC1,IIIB,RT-L100I,cytopathic effect,,0.46 µg/mL
C[C@H](COc1cc(N)nc(N)n1)OCP(=O)(O)O,Clinical isolate L6.5,RT-S68G K70T V75I F77L K103N F116Y Q151M K219R,syncytia,,20 µg/mL
Cc1cn([C@H]2C[C@H](N=[N+]=[N-])[C@@H](COP(=O)(O)OC[C@H]3OC(O)[C@H](O)[C@@H](O)[C@@H]3O)O2)c(=O)[nH]c1=O,LAV-Bru,,RT activity,26 d,<5 µM
CN1C(=O)N(Cc2ccccc2)c2cscc2S1(=O)=O,IIIB,,syncytia,,>64.8 µM
Cc1occc1C(=S)Nc1ccc(Cl)c(/C=N/OC(C)(C)C)c1,IIIB,RT-M184V,syncytia,,0.007 µg/mL
S=C(S)N1CCOCC1,,,cytopathic effect / XTT,,16 µM
Fc1cccc(F)c1C1SCc2nc3ccccc3n21,,RT-K103N,cytopathic effect,,15.6 µM
O=C(O)COc1c2cc(c(OCC(=O)O)c1OCC(=O)O)C(c1ccc(F)cc1)c1cc(c(OCC(=O)O)c(OCC(=O)O)c1OCC(=O)O)C(c1ccc(F)cc1)c1cc(c(OCC(=O)O)c(OCC(=O)O)c1OCC(=O)O)C(c1ccc(F)cc1)c1cc(c(OCC(=O)O)c(OCC(=O)O)c1OCC(=O)O)C2c1ccc(F)cc1,IIIB,,syncytia,,4 µg/mL
N#CCN1C(=O)N(Cc2ccccc2)S(=O)(=O)c2cscc21,IIIB,RT-Y181C,syncytia,,>300 µM
Cc1ccnc2c1NC(=O)c1cccnc1N2C1CC1,,RT-E138K,syncytia,,0.4 µM
NC(=O)CN1C(=O)N(Cc2ccccc2)c2cscc2S1(=O)=O,IIIB,,syncytia,,>284.5 µM
N#Cc1c(N)nc(N)nc1OCCOCP(=O)(O)O,IIIB,,syncytia,,11 µM
Nc1ncnc2c1ncn2CCOCP(=O)(O)O,IIIB-TIBO(0.1),,syncytia,,18 µM
Cc1cn([C@H]2C[C@H](N=[N+]=[N-])[C@@H](CO)O2)c(=O)[nH]c1=O,,,cytopathic effect / XTT,,0.007 µM
Fc1cccc(F)c1C1SCc2nc3ccccc3n21,IIIB,,cytopathic effect,,1.39 µM
Nc1nc2c(ncn2C[C@H](OCP(=O)(O)O)C2CC2)c(=O)[nH]1,RF,,XTT,,>100 µM
Cc1cn([C@H]2C[C@H](F)[C@@H](C(C)O)O2)c(=O)[nH]c1=O,IIIB,,syncytia,,1.9 ± 1.6 µg/mL
C[C@H](Cn1cnc2c(N)ncnc21)OCP(=O)(O)O,IIIB,,syncytia,,1.2 µM
COC(=O)c1ccc2ccc(/C=C/c3ccc(O)c(O)c3)nc2c1O,,,ELISA,,>9.2 µM
Cc1cn([C@H]2C=C[C@@H](CO)O2)c(=O)[nH]c1=O,IIIB,,syncytia,4 d,0.8 µM
Cc1cc(C)nc(N2C(=O)CSC2c2c(Cl)cccc2Cl)n1,,RT-K103N,cytopathic effect,,16.9 µM
CCN1C(=O)N(Cc2cccc(Cl)c2)S(=O)(=O)c2cscc21,,RT-Y181C,syncytia,,>56 µM
C[C@H](CC1CNC2C(N)=NC(N)NC12)OCP(=O)(O)O,IIIB,,cytopathic effect / MTT,,50 ± 14 µg/mL
CC[C@H](C)[C@H](NC(=O)[C@@H]1CCCN1CC(O)[C@H](Cc1ccccc1)NC(=O)[C@H](CC(N)=O)NC(=O)[C@H](CC(C)C)NC(=O)[C@H](CO)NC(C)=O)C(=O)N[C@H](C(=O)OC)C(C)C,IIIB,,cytopathic effect / MTT,,>10 µM
CN(C)[C@@H]1C(=O)C(C(=O)NCNc2nc3n[nH]nc3c(=O)[nH]2)=C(O)[C@@]2(O)C(=O)C3=C(O)c4c(O)cccc4[C@@](C)(O)[C@H]3C[C@@H]12,RF,,cytopathic effect / XTT,,100 µM
CCCCCCCCCCCCCCCCOP(=O)(OC[C@H]1OC(O)[C@H](O)[C@@H](O)[C@@H]1O)OC[C@H]1O[C@@H](n2cc(C)c(=O)[nH]c2=O)C[C@@H]1N=[N+]=[N-],LAV-Bru,,RT activity,7 d,<0.2 µM
Nc1ccn([C@H]2CC[C@@H](CO)O2)c(=O)n1,IIIB-Nevirapine(1.0)(RT-Y181C),RT-Y181C,syncytia,,0.04 µM
CCOCn1c(Cc2ccccc2)c(C(C)C)c(=O)[nH]c1=O,IIIB,RT-K103N,syncytia,,0.38 µg/mL
Nc1nc(Nc2ccccc2)c2ncn(CCOCP(=O)(O)O)c2n1,IIIB,,cytopathic effect / MTT,,63.3 µg/mL
C[C@H](Cn1cnc2c(N)ncnc21)OCP(=O)(O)O,Clinical isolate C20,RT-M41L D67N V118I M184V L210W T215Y,syncytia,,23.5 µg/mL
CC(C)CN(C[C@@H](O)[C@H](Cc1ccccc1)NC(=O)[C@H](CC(N)=O)NC(=O)c1ccc2ccccc2n1)C(=O)NC(C)(C)C,IIIB,,cytopathic effect / MTT,,0.021 µM
C#CCN1C(=O)N(Cc2ccccc2)S(=O)(=O)c2cscc21,IIIB,RT-L100I,syncytia,,6 µM
Cc1ccnc(N2C(=O)CSC2c2c(Cl)cccc2Cl)n1,,RT-Y181C,cytopathic effect,,4.41 µM
Nc1cc(OCCOCP(=O)(O)O)nc(N)n1,Clinical isolate C20,RT-M41L D67N V118I M184V L210W T215Y,syncytia,,4.6 µg/mL
O=C1N(Cc2ccccc2)c2cscc2S(=O)(=O)N1Cc1ccccc1,IIIB,RT-V106A,syncytia,,≥10 µM
Cc1cn([C@H]2C[C@H](N=[N+]=[N-])[C@@H](CO)O2)c(=O)[nH]c1=O,,RT-Y181C,cytopathic effect,,0.019 µM
CC(C)CCN(C[C@@H](O)[C@H](Cc1ccccc1)NC(=O)[C@H](CC(N)=O)NC(=O)c1ccc2ccccc2n1)C(=O)NC(C)(C)C,IIIB,,cytopathic effect / MTT,,0.01 µM
O=c1oc(C23CC4CC(CC(C4)C2)C3)nc2ccc(Br)cc12,,,cytopathic effect / XTT,,50.3 µM
CC(C)=CCOc1cc(NC(=S)c2ccsc2C)ccc1Cl,IIIB,RT-L100I,cytopathic effect,,0.006 µg/mL
CCN1C(=O)N(Cc2ccccc2)S(=O)(=O)c2cscc21,IIIB,,syncytia,,1.5 µM
Oc1ccc(/C=C/c2ccc3c(Cl)cc(Cl)c(O)c3n2)cc1O,,,ELISA,,>17 µM
CC(C)Nc1cccnc1N1CCN(C(=O)c2cc3cc(NS(C)(=O)=O)ccc3[nH]2)CC1,IIIB,,syncytia,,0.006 µg/mL
Cc1cccc(NC(=O)c2ccccc2SSc2ccccc2C(=O)Nc2cccc(C)c2)c1,,,cytopathic effect / XTT,,20 µM
CN(C)[C@@H]1C(=O)C(C(=O)NCNC2(C(=O)[O-])CCCC2)=C(O)[C@@]2(O)C(=O)C3=C(O)c4c(O)cccc4[C@@](C)(O)[C@H]3C[C@@H]12.[Na+],RF,,cytopathic effect / XTT,,0.6 µM
CCN(CC)c1ccc(NC(=O)c2ccccc2SSc2ccccc2C(=O)Nc2ccc(N(CC)CC)cc2)cc1,,,cytopathic effect / XTT,,10 µM
Nc1nc(NC2CCCC2)c2ncn(CCOCP(=O)(O)O)c2n1,IIIB,,cytopathic effect / MTT,,2 µg/mL
CC[C@H](C)[C@H](NC(=O)[C@@H]1CCCN1C[C@H](O)[C@H](Cc1ccccc1)NC(=O)[C@H](CC(N)=O)NC(=O)OCc1ccccc1)C(=O)N[C@@H](Cc1ccccc1)C(=O)OC,IIIB,,cytopathic effect / MTT,,0.38 µM
CCC(=O)c1ccc(NC(=O)c2ccccc2SSc2ccccc2C(=O)Nc2ccc(C(=O)CC)cc2)cc1,,,cytopathic effect / XTT,,16 µM
CCN(CC)c1ncnc2c1ncn2CCOCP(=O)(O)O,IIIB,,cytopathic effect / MTT,,>4 µg/mL
Cc1ccc(NC(=O)C23CC4CC(CC(C4)C2)C3)c(C(=O)NN)c1,,,cytopathic effect / XTT,,>38.9 µM
Cc1cn([C@@H]2O[C@H](CO[Si](C)(C)C(C)(C)C)C3(OS(=O)(=O)C=C3N)[C@H]2O[Si](C)(C)C(C)(C)C)c(=O)n(C)c1=O,IIIB,RT-V179D,cytopathic effect,,0.097 µg/mL
COc1cc(C)nc(N2C(=O)CSC2c2c(Cl)cccc2Cl)n1,,RT-K103N,cytopathic effect,,21.6 µM
Cc1occc1C(=S)Nc1ccc(Cl)c(C(=O)OCC(C)C)c1,IIIB,,syncytia,,0.023 µM
Fc1cccc(F)c1C1SCc2nc3ccccc3n21,IIIB,RT-K103N,cytopathic effect / MTT,,15.6 µM
Cc1cn([C@H]2C[C@H](N=[N+]=[N-])[C@@H](CO)O2)c(=O)[nH]c1=O,IIIB,,syncytia,,0.003 µM
CCNc1nc(N(C)C)nc2c1[nH]c[n+]2C[C@@H](C)OCP(=O)(O)O,IIIB,,cytopathic effect / MTT,,7 µg/mL
CN1C(=O)N(Cc2ccccc2)S(=O)(=O)c2cscc21,IIIB,RT-K103N,syncytia,,>324 µM
CCC(C)Nc1nc(N)nc2c1ncn2CCOCP(=O)(O)O,IIIB,,cytopathic effect / MTT,,3 µg/mL
Cc1occc1C(=S)Nc1ccc(Cl)c(C(=O)OC2CCCC2)c1,IIIB,RT-Y188L,syncytia,,2.5 µg/mL
CN(C)[C@@H]1C(=O)C(C(=O)NCN2CCCC2)=C(O)[C@@]2(O)C(=O)C3=C(O)c4c(O)cccc4[C@@](C)(O)[C@H]3C[C@@H]12,RF,,cytopathic effect / XTT,,45.5 µM

A second listing of 8 rows from above:

| compound | strain | changes | method | setting | value |
|---|---|---|---|---|---|
| CC[C@H](C)[C@H](NC(=O)[C@@H]1CCCN1C[C@H](O)[C@H](Cc1ccccc1)NC(=O)[C@H](CC(N)=O)NC(=O)OCc1ccccc1)C(=O)N[C@@H](Cc1ccccc1)C(=O)OC | IIIB |  | cytopathic effect / MTT |  | 0.38 µM |
| CCN(CC)c1ncnc2c1ncn2CCOCP(=O)(O)O | IIIB |  | cytopathic effect / MTT |  | >4 µg/mL |
| Fc1cccc(F)c1C1SCc2nc3ccccc3n21 | IIIB | RT-K103N | cytopathic effect / MTT |  | 15.6 µM |
| Cc1occc1C(=S)Nc1ccc(Cl)c(C(=O)OC2CCCC2)c1 | IIIB | RT-Y188L | syncytia |  | 2.5 µg/mL |
| Nc1nc2c(ncn2C[C@H](OCP(=O)(O)O)C2CC2)c(=O)[nH]1 | RF |  | XTT |  | >100 µM |
| Cc1cn([C@H]2C[C@H](F)[C@@H](C(C)O)O2)c(=O)[nH]c1=O | IIIB |  | syncytia |  | 1.9 ± 1.6 µg/mL |
| Nc1ccn([C@H]2CC[C@@H](CO)O2)c(=O)n1 | IIIB-Nevirapine(1.0)(RT-Y181C) | RT-Y181C | syncytia |  | 0.04 µM |
| O=C(O)COc1c2cc(c(OCC(=O)O)c1OCC(=O)O)C(c1ccc(F)cc1)c1cc(c(OCC(=O)O)c(OCC(=O)O)c1OCC(=O)O)C(c1ccc(F)cc1)c1cc(c(OCC(=O)O)c(OCC(=O)O)c1OCC(=O)O)C(c1ccc(F)cc1)c1cc(c(OCC(=O)O)c(OCC(=O)O)c1OCC(=O)O)C2c1ccc(F)cc1 | IIIB |  | syncytia |  | 4 µg/mL |

Blank or dashed fields: not listed here. Rows are shuffled and stem from different studies.